Reference: PubChem BioAssay AID1224833 (University of Georgia, 2016)
Here is an unselected part of about 12,000 reagents tested. Over the whole deposit, about 5,600 (46%) were called active. 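Active calls cover z-scores past 1 in both directions, so they include lowered as well as raised rotavirus replication.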 A number with no mark means an inactive call.

Purpose: 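Human genes whose knock-down alters rotavirus replication in monkey cells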 (primary screen)
System: monkey MA104 kidney cells
Reagent: siRNA pool against human genes, 50 nM
Timing: 48 h knock-down before infection; read 24 h after infection
Challenge: infection with rotavirus strain RV3 two days after transfection; infectious dose for this stage not given
Measurement: 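Rotavirus antigen per well by fluorescent immunoassay, normalised to non-targeting control wells on each plate and given as a standard z-score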
Direction: z-score vs non-targeting control: higher = more rotavirus replication than with non-targeting control
Call rule: In these data the active calls have z-score vs non-targeting control at about -1 or lower, or at about 1 or higher
Calls: active = z-score beyond 1 either way; inactive = z-score within 1 of zero

gene symbol,z-score vs non-targeting control
ERICH3,1.03 (active)
PXMP4,-1.65 (active)
TAF15,-1.7 (active)
RAB43,-1.8 (active)
ANKRD36,0.268
TM4SF4,-1.81 (active)
SLC44A3,-2.96 (active)
PAX2,-1.12 (active)
BST2,-0.716
ANKZF1,1.03 (active)
CPLX3,-0.141
SCRN2,0.887
EIF1AX,-0.586
POMT1,-0.651
PCDHB9,0.17
HSD17B10,-1.26 (active)
ZNF764,-1.22 (active)
NCOA5,0.35
POU4F1,2.25 (active)
MAGEB2,-0.509
F8A3,-0.0916
EEF1A2,-1.39 (active)
CHRDL1,0.118
EPB41,0.592
CDNF,0.663
C2CD3,-1.46 (active)
MYL2,-1.46 (active)
DNM1,0.548
LILRA4,0.122
OPA3,-0.574
NRIP1,-0.282
ZNF573,-1.71 (active)
SLC22A5,1.31 (active)
CEP83,0.121
KERA,-0.128
FHDC1,-0.912
ABCB7,-1.47 (active)
BAIAP2,-2.11 (active)
ATMIN,-0.863
OR52B6,-1.03 (active)
S1PR5,1.94 (active)
SNRPA,0.622
TTLL2,0.367
ADCY6,-0.99
SLC67A2,-1.16 (active)

Reformatted: results already given.
{"gene symbol": "EEF1A2", "z-score vs non-targeting control": "-1.39 (active)"}
{"gene symbol": "CHRDL1", "z-score vs non-targeting control": 0.118}
{"gene symbol": "EPB41", "z-score vs non-targeting control": 0.592}
{"gene symbol": "CDNF", "z-score vs non-targeting control": 0.663}
{"gene symbol": "C2CD3", "z-score vs non-targeting control": "-1.46 (active)"}
